PubChem BioAssay AID1224833 | University of Georgia | 2016
This is a random part of about 12,000 reagents. In the full data, about 5,600 (46%) got an active call. 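Active calls cover z-scores past 1 in both directions, so they include lowered as well as raised rotavirus replication.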 Entries without a mark were called inactive.

Assay: 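Human genes whose knock-down alters rotavirus replication in monkey cells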 (primary screen)
Cell system: monkey MA104 kidney cells
Reagent: siRNA pool against human genes, 50 nM
Time to read-out: 48 h knock-down before infection; read 24 h after infection
Challenge: infection with rotavirus strain RV3 two days after transfection; infectious dose for this stage not given
Detection: 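Rotavirus antigen per well by fluorescent immunoassay, normalised to non-targeting control wells on each plate and given as a standard z-score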
Scale: z-score vs non-targeting control: higher = more rotavirus replication than with non-targeting control
Active means: In these data the active calls have z-score vs non-targeting control at about -1 or lower, or at about 1 or higher
Meaning of the calls: active = z-score beyond 1 either way; inactive = z-score within 1 of zero

| gene knocked down | z-score vs non-targeting control |
| --- | --- |
| DEFA6 (GeneID 1671) | -0.771 |
| IPCEF1 (GeneID 26034) | 0.432 |
| MZT2A (GeneID 653784) | -0.717 |
| SGSH (GeneID 6448) | 0.868 |
| PITPNM1 (GeneID 9600) | -1.4 (active) |
| SLC9A9 (GeneID 285195) | -0.554 |
| ETF1 (GeneID 2107) | -0.515 |
| MAL (GeneID 4118) | 0.0761 |
| S100A7A (GeneID 338324) | -0.255 |
| PLD3 (GeneID 23646) | -1.37 (active) |
